Molecular target: Recombinant poliovirus RNA polymerase (Poliovirus type 1, UniProt P03300)

Chains of the proteins cited; added tags and fusions are not shown. Residues count along the entry.
UniProt P03300, 1749-2209 limits assumed: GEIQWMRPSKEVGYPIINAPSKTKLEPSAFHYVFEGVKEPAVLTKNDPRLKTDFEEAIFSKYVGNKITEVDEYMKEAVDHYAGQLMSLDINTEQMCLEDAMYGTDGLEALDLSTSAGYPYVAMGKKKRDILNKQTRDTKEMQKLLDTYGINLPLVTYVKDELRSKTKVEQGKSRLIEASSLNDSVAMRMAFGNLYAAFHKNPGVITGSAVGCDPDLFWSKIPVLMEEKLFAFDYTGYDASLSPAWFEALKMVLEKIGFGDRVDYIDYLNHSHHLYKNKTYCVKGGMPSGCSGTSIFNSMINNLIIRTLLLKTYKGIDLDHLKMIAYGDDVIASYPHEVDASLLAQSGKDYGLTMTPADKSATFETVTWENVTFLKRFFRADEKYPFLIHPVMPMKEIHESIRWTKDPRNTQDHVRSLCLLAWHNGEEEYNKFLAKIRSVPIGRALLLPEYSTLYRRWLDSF

SMILES	Inhibition of transcription with the RNA-dependent RNA polymerase of poliovirus
Nc1nc2c(ncn2[C@@H]2O[C@H](COP(=O)(O)OP(=O)(O)OP(=O)(O)O)C[C@H]2O)c(=O)[nH]1 [3'-d GTP, 3'-deoxy-GTP]	effective inhibitors
O=c1ccn([C@@H]2O[C@H](COP(=O)(O)OP(=O)(O)OP(=O)(O)O)C[C@H]2O)c(=O)[nH]1 [3'-d UTP, 3'-deoxy UTP]	effective inhibitors
Nc1ccn([C@@H]2O[C@H](COP(=O)(O)OP(=O)(O)OP(=O)(O)O)C[C@H]2O)c(=O)n1 [3'-d CTP, 3'-deoxy-CTP]	effective inhibitors

From patent publication US6110901A (priority 1992, dated 2000)
